Target: Toll-like Receptor 5 (UniProt O60602 21-858)
Assay: cell-based or functional assay

B1: STF2.4×H1C1 (other)
chain: MAQVINTNSLSLLTQNNLNKSQSALGTAIERLSSGLRINSAKDDAAGQAIANRFTANIKGLTQASRNANDGISIAQTTEGALNEINNNLQRVRELAVQSANSTNSQSDLDSIQAEITQRLNEIDRVSGQTQFNGVKVLAQDNTLTIQVGANDGETIDIDLKQINSQTLGLDSLNVQKAYDVKDTAVTTKAYANNGTTLDVSGLDDAAIKAATGGTNGTASVTGGAVKFDADNNKYFVTIGGFTGADAAKNGDYEVNVATDGTVTLAAGATKTTMPAGATTKTEVQELKDTPAVVSADAKNALIAGGVDATDANGAELVKMSYTDKNGKTIEGGYALKAGDKYYAADYDEATGAIKAKTTSYTAADGTTKTAANQLGGVDGKTEVVTIDGKTYNASKAAGHDFKAQPELAEAAAKTTENPLQKIDAALAQVDALRSDLGAVQNRFNSAITNLGNTVNNLSEARSRIEDSDYATEVSNMSRAQILQQAGTSVLAQANQVPQNVLSLLAMEWENIPSIQSRGLFGAIAGFIEEWENIPSIQSRGLFGAIAGFIEEWENIPSIQSRGLFGAIAGFIEEWENIPSIQSRGLFGAIAGFIE
in vitro TLR5 activity (EC50); IL-8 secretion by HEK293 cells: ~100 fold (EC50 relative to STF2.OVA)

— patent US20070224205A1 (published 2007)
